Measured values as given in patent publication US12533408B2, “Treatment regimen for the treatment of autoimmune disorders” (Merck Patent GmbH, priority 2020, dated 2026).

What was measured:
[1] = tested on: Influenza strain Victoria (Colorado/B); test: Hemagglutination inhibition (HAI) antibody titer, Victoria (Colorado/B); format: in vivo, influenza B virus; conditions: for Victoria (Colorado/B) antibody titer (HAI): c1-c11 = trial month Scr,0,1,2,3,6,12,14,15,18,End; for Victoria (Colorado/B) HAI titer: vaccinated strain, by trial month
[2] = tested on: Influenza strain Yamagata (Phuket/B); test: Hemagglutination inhibition (HAI) antibody titer, Yamagata (Phuket/B); format: in vivo, influenza B virus; conditions: for Yamagata (Phuket/B) antibody titer (HAI): c1-c11 = trial month Scr,0,1,2,3,6,12,14,15,18,End; for Yamagata (Phuket/B) HAI titer: vaccinated strain, by trial month
[3] = Patient Spain 2, vaccinated 49 days after first dose of course 1
[4] = Patient Australia 1, vaccinated 133 days after first dose of Mavenclad course 2
[5] = Patient Australia 1, vaccinated 133 days after first dose of Mavenclad course 2, Extended Panel
[6] = Patient Canada 1, vaccinated 104 days after first dose of Mavenclad course 1, Extended Panel
[7] = Patient Finland 1, vaccinated 187 days after first dose of Mavenclad course 1
[8] = Patient Finland 1, vaccinated 187 days after first dose of Mavenclad course 1, Extended Panel
[9] = Patient France 1, vaccinated 33 days after first dose of Mavenclad course 2
[10] = Patient France 1, vaccinated 33 days after first dose of Mavenclad course 2, Extended Panel

Nc1nc(Cl)nc2c1ncn2[C@H]1C[C@H](O)[C@@H](CO)O1 [cladribine tablets, Cladribine]
Victoria (Colorado/B) antibody titer (HAI) ([1]; Patient Canada 1, vaccinated 104 days after first dose of course 1): 40 | Victoria (Colorado/B) antibody titer (HAI) [1, 3]: 20 | Victoria (Colorado/B) HAI titer [1, 4]: 40 | Victoria (Colorado/B) HAI titer [1, 5]: 40 | Victoria (Colorado/B) HAI titer [1, 6]: 40 | Victoria (Colorado/B) HAI titer [1, 7]: 40 and 60 | Victoria (Colorado/B) HAI titer [1, 8]: 40 and 60 | Victoria (Colorado/B) HAI titer [1, 9]: 80 and 40 | Victoria (Colorado/B) HAI titer [1, 10]: 80 and 40 | Yamagata (Phuket/B) antibody titer (HAI) ([2]; Patient Canada 1, vaccinated 104 days after first dose of course 1, listed as Mavenclad): 40 and 20 | Yamagata (Phuket/B) antibody titer (HAI) ([2]; Patient Spain 1, vaccinated 113 days after first dose of course 1, listed as Mavenclad): 40 and 30 | Yamagata (Phuket/B) antibody titer (HAI) [2, 3]: 20 | Yamagata (Phuket/B) antibody titer (HAI) ([2]; Patient Spain 3, vaccinated 72 days after first dose of course 1, listed as Mavenclad): 20 and 30 and 40 | Yamagata (Phuket/B) HAI titer [2, 4]: 80 and 60 and 40 | Yamagata (Phuket/B) HAI titer [2, 5]: 80 and 60 and 40 | Yamagata (Phuket/B) HAI titer [2, 6]: 40 and 20 | Yamagata (Phuket/B) HAI titer [2, 7]: 80 | Yamagata (Phuket/B) HAI titer [2, 8]: 80 | Yamagata (Phuket/B) HAI titer [2, 9]: 80 and 40 | Yamagata (Phuket/B) HAI titer [2, 10]: 80 and 40 | Yamagata (Phuket/B) HAI titer ([2]; Patient Spain 1, vaccinated 113 days after first dose of Mavenclad course 1, Extended Panel): 40 and 30 | Yamagata (Phuket/B) HAI titer ([2]; Patient Spain 3, vaccinated 72 days after first dose of Mavenclad course 1, Extended Panel): 20 and 30 and 40

Values joined by “and” are separate entries in the source; they are usually repeats but may differ in a detail not shown here. Identical values can stand only once.
